Chains of the proteins cited; added tags and fusions are not shown. Residues count along the entry.
UniProt O89342, 27-109 partner limits assumed: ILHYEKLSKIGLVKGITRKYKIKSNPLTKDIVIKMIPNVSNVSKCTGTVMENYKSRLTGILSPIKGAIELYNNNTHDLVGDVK
UniProt O89342, 110-546 limits assumed: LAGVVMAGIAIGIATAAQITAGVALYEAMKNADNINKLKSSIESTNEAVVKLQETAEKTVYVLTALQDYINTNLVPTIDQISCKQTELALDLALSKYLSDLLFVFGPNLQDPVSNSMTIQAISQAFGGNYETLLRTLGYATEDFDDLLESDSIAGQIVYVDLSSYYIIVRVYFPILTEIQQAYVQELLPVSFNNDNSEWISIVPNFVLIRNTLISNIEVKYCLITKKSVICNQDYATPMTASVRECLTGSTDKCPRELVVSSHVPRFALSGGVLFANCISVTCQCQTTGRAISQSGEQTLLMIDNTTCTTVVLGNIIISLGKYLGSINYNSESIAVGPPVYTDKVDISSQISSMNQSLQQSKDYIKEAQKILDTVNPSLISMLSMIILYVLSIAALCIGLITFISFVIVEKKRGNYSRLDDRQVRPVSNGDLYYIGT
UniProt Q9IH63, 27-109 partner limits assumed: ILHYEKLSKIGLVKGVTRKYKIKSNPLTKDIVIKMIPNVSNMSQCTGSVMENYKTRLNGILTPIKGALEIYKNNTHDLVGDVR
UniProt Q9IH63, 110-546 limits assumed: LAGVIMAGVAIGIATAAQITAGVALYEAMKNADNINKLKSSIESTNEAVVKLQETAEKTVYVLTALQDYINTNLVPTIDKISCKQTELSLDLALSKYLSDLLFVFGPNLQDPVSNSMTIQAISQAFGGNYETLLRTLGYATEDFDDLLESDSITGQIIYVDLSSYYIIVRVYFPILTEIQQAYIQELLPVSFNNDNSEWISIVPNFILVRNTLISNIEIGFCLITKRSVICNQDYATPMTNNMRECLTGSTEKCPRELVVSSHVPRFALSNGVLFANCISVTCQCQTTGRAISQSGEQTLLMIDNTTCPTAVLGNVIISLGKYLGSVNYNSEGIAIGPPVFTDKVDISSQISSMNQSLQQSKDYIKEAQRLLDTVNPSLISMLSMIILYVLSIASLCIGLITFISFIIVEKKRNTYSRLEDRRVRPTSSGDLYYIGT

In paper PMC1208959 (Virology Journal, 2005):

Assays:
[1] = target: HeV F and HeV G glycoproteins (Hendra virus, UniProt O89342)
[2] = target: NiV F and NiV G glycoproteins (Nipah virus, UniProt Q9IH63)

With `CC[C@H](C)[C@H](NC(=O)[C@H](Cc1ccc(O)cc1)NC(=O)[C@H](CC(=O)O)NC(=O)[C@H](CCCCN)NC(=O)[C@H](CO)NC(=O)[C@H](CCC(N)=O)NC(=O)[C@H](CCC(N)=O)NC(=O)[C@H](CC(C)C)NC(=O)[C@H](CO)NC(=O)[C@H](CCC(N)=O)NC(=O)[C@H](CC(N)=O)NC(=O)[C@H](CCSC)NC(=O)[C@H](CO)NC(=O)[C@H](CO)NC(=O)[C@@H](NC(=O)[C@H](CCC(N)=O)NC(=O)[C@H](CO)NC(=O)[C@H](CO)NC(=O)[C@@H](NC(=O)[C@H](CC(=O)O)NC(=O)[C@@H](NC(=O)[C@H](CCCCN)NC(C)=O)C(C)C)[C@@H](C)CC)[C@@H](C)CC)C(=O)N[C@@H](CCCCN)C(=O)N[C@@H](CCC(=O)O)C(=O)N[C@@H](C)C(=O)N[C@@H](CCC(N)=O)C(=O)N[C@@H](CCCNC(=N)N)C(=O)N[C@@H](CC(C)C)C(=O)N[C@@H](CC(C)C)C(=O)N[C@@H](CC(=O)O)C(=O)N[C@H](C(=O)N[C@H](C(=O)N[C@@H](CC(N)=O)C(=O)N1CCC[C@H]1C(=O)N[C@@H](CO)C(=O)N[C@@H](CC(C)C)C(N)=O)C(C)C)[C@@H](C)O` the IC50 [1] was 17.6 nM and 23.9 nM and 27.5 nM and the IC50 [2] was 13.1 nM and 16.3 nM and 17.8 nM.

Where “and” joins values, the source holds several entries; their conditions need not be identical. Equal values may be shown once.
